Results of unrelated studies side by side (data: NIAID ChemDB).

Common to all: whole-cell or culture tests; organism: Vesicular stomatitis virus; read-out: EC50

ECn: concentration that inhibits the pathogen or its effect by n%.

{"compound": "Nc1ncnc2c1ncn2C[C@H](O)CO", "method": "cytopathic effect", "cell line": "PRK", "value": "20 µg/mL"}
{"compound": "C[C@H]1C[C@@H](n2cnc3c(N)ncnc32)[C@H](O)[C@@H]1O", "method": "cytopathic effect", "cell line": "HeLa", "value": "2 µg/mL"}
{"compound": "Nc1ccn([C@@H]2C[C@H](CO)[C@@H](O)[C@H]2O)c(=O)n1", "method": "cytopathic effect", "cell line": "E6SM", "value": "10 µg/mL"}
{"compound": "Nc1nccc2c1ncn2[C@@H]1O[C@H](CO)[C@@H](O)[C@H]1O", "method": "cytopathic effect", "cell line": "PRK", "value": "7 µg/mL"}
{"compound": "O=c1[nH]c(=O)n([C@H]2C[C@H](O)[C@@H](CO)O2)cc1/C=C/Br", "method": "plaque count", "cell line": "BHK-21/C13", "value": ">500 µM"}
{"compound": "O=c1ccn([C@H]2C[C@H](O)[C@@H](CO)S2)c(=O)[nH]1", "method": "cytopathic effect", "cell line": "E6SM", "value": ">2000 µM"}
{"compound": "Nc1nc(Cl)c2ncn(C[C@H]3CC[C@@H](CO)C3)c2n1", "method": "cytopathic effect", "cell line": "E6SM", "value": ">1 µg/mL"}
{"compound": "Nc1ncnc2c1ccn2[C@@H]1O[C@H](CO)[C@@H](O)[C@H]1O", "method": "cytopathic effect", "cell line": "PRK", "value": "0.02 µg/mL"}
{"compound": "CCc1cn([C@H]2C[C@H](O)[C@@H](CO)O2)c(=O)[nH]c1=O", "method": "cytopathic effect", "cell line": "E6SM", "value": ">2000 µM"}
{"compound": "Nc1ncnc2c1ncn2C[C@H](O)CO", "method": "cytopathic effect", "cell line": "HeLa", "value": ">400 µg/mL"}
{"compound": "O=c1[nH]c(=O)n([C@H]2C[C@H](O)[C@@H](CO)O2)cc1/C=C/Br", "method": "cytopathic effect", "cell line": "E6SM", "value": ">200 µM"}
{"compound": "Nc1nc2c(nnn2C[C@H]2CC[C@@H](CO)C2)c(=O)[nH]1", "method": "cytopathic effect", "cell line": "E6SM", "value": ">200 µg/mL"}
{"compound": "O=c1[nH]c(=O)n([C@H]2C[C@H](O)[C@@H](CO)S2)cc1C1CCC1", "method": "cytopathic effect", "cell line": "E6SM", "value": ">1500 µM"}
{"compound": "O=c1[nH]c(=O)n([C@H]2C[C@H](O)[C@@H](CO)O2)cc1/C=C/Br", "method": "cytopathic effect", "cell line": "HeLa", "value": ">400 µg/mL"}

Rows are shuffled and stem from different studies.